{"source": "patent US6066628A", "about": "“Non-iron metalloporphyrins and methods of use” (Emory University, priority 1998, dated 2000)", "test_system": "Y. enterocolitica", "assay": "Minimal inhibitory concentration / sensitivity in broth", "type": "cell-based", "details": "fur mutant H1852; Nutrient broth (Table 2)"}
{"substance": "Gadolinium protoporphyrin IX", "values": [{"measurement": "Minimal inhibitory concentration (MIC)", "value": 5, "unit": "µg/mL"}]}
